Experimental data reported in PubChem BioAssay AID1259309 (ICCB-Longwood Screening Facility, Harvard Medical School, 2017).
Only a part is listed here, and it is no random draw. Activity calls are given as the source filed them. No stated cut-off is given here; in the data, active means growth inhibition above about 68%; inactive means the rest.

Experiment: growth inhibition of ugtP-null S. aureus, primary screen, RN4220 ugtP deletion, OD600 (AID 1259309);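 further: plate controls were untreated wells for no effect and antibiotic for full effect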
Conditions: 16 h, hits give high values

Compound | growth inhibition
Nc1ccc([As](=O)(O)c2ccc([N+](=O)[O-])cc2)cc1 | inactive: 9.57%
C(Cc1nn[nH]n1)Cc1nn[nH]n1 | inactive: 6.27%
O=C(OC1CN2CCC1CC2)c1cccc(Cl)c1 (stereo not drawn) | inactive: 1.68%
CC(=O)NC(SC(=S)N(C)C)C(Cl)(Cl)Cl (stereo not drawn) | inactive: 37.7%
O=[N+]([O-])c1ccc(OP2(=O)COCCO2)cc1 (stereo not drawn) | inactive: 2.59%
O=[N+]([O-])c1ncn(CCn2cnc([N+](=O)[O-])n2)n1 | inactive: 9.33%
O=[As](O)(c1ccccc1)c1ccc(O)cc1 | inactive: 5.87%
CN(C(=O)Cc1ccc(Cl)c(Cl)c1)C1CC[C@@]2(CCCO2)CC1N1CCCC1 (stereo partly drawn) | inactive: 0.0225%
Cc1cc(-c2cccc3ccccc23)c(C)cn1.O=[N+]([O-])c1cc([N+](=O)[O-])c(O)c([N+](=O)[O-])c1 | inactive: 12.4%
O=[N+]([O-])c1cc([N+](=O)[O-])c(NCC2CCS(=O)(=O)C2)c([N+](=O)[O-])c1 (stereo not drawn) | inactive: 80.5%
CCN(C(=NP(=O)(N1CCOCC1)N1CCOCC1)N1CCOCC1)c1ccc(OC)cc1 | inactive: 3.81%
O=P(Nc1nc2ccccc2s1)(c1ccccc1)c1ccccc1 | inactive: -1.05%
COc1ccc(NP(C)(=O)Oc2ccccc2OC)cc1 (stereo not drawn) | inactive: -0.976%
COc1ccc(OP(C)(=O)Nc2cccc(Br)c2)cc1 (stereo not drawn) | inactive: 2.79%
CC(C)C=NN=C(N)N[N+](=O)[O-] | inactive: 3.45%
COc1ccc(N)c([N+](=O)[O-])c1[N+](=O)[O-] | inactive: 5.51%
C=CCN1CCN(CCOC(=O)C(O)(c2ccccc2)c2ccccc2)CC1 | inactive: 7.25%
O=P(Nc1ccccn1)(c1ccc(Br)cc1)c1ccc(Br)cc1 | inactive: 4.51%
CN(C)C1(CNC(=O)c2ccc(Cl)c(S(N)(=O)=O)c2)CCCCC1 | inactive: 4.1%
Cc1ccccc1NP(C)(=O)Nc1ccccc1C | inactive: -1.84%
CP(=O)(Nc1ccc2c(c1)OCCO2)Oc1ccccc1 (stereo not drawn) | inactive: 2.98%
CCOP(C)(=S)SCC(=O)NC(C)(CC)C(=O)O (stereo not drawn) | inactive: 0.828%
c1nnnn1CCn1cnnn1 | inactive: 6.41%
CP(=O)(Nc1ccc(SC(F)(F)F)cc1)Oc1ccc(F)cc1 (stereo not drawn) | inactive: -15.6%
CC(C)C(=O)NC(Sc1ccccc1)C(Cl)(Cl)Cl (stereo not drawn) | inactive: -2.19%

Compound | growth inhibition
O=P(Nc1nccs1)(c1ccccc1)c1ccccc1 | inactive: -0.909%
CCNC(=S)N=C(N)N[N+](=O)[O-] | inactive: 3.76%
CC(=O)Nc1ccc([As](=O)(O)O)c(O)c1 | inactive: 4.07%
CC(=O)Nc1ccc(Oc2c([N+](=O)[O-])cc([N+](=O)[O-])cc2[N+](=O)[O-])cc1 | inactive: 13.9%
NC(=NO)c1c(N)no[n+]1[O-] | inactive: -2.54%
CC(=O)c1ccc(N2CC2c2ccncc2)cc1 (stereo not drawn) | inactive: 4.37%
O=C(OC1CN2CCC1CC2)c1ccc([N+](=O)[O-])cc1 (stereo not drawn) | inactive: 10.8%
Cc1ccccc1CN(C)C(=O)COC(=O)C(O)(c1ccccc1)c1ccccc1 | inactive: 9.69%
O=C(OCCN1CCN(CCOCc2ccccc2)CC1)C(O)(c1ccccc1)c1ccccc1 | inactive: -0.507%
CCc1cc(O)c([N+](=O)[O-])c(C)c1[N+](=O)[O-] | inactive: 20.7%
CP(=O)(Nc1ccccc1F)Oc1ccccc1 (stereo not drawn) | inactive: -0.451%
CC(C)(C)C(=O)NC(Sc1ccccc1)C(Cl)(Cl)Cl (stereo not drawn) | inactive: 1.34%
CN(C(=O)Cc1ccccc1)C1CC[C@]2(CCCO2)CC1N1CCCC1 (stereo partly drawn) | inactive: -2.03%
O=P1(Nc2nc3ccc(Cl)cc3s2)COc2ccccc2O1 (stereo not drawn) | inactive: -3.45%
CCOc1ccc(C2=NCC(CBr)S2)cc1 (stereo not drawn) | inactive: 3.38%
CP(=O)(Nc1ccccc1)Oc1ccc(F)cc1 (stereo not drawn) | inactive: 0.452%
Cc1ccccc1OP(=O)(Nc1ccccn1)Oc1ccccc1C | inactive: -4.32%
CC(NC(=O)COC(=O)C(O)(c1ccccc1)c1ccccc1)c1ccccc1 (stereo not drawn) | inactive: -0.418%
CN(C)C(=O)Oc1noc2ccccc12 | inactive: 6.04%
O=[N+]([O-])c1cc([N+](=O)[O-])c(OC2CCCCC2O)c([N+](=O)[O-])c1 (stereo not drawn) | inactive: 5.72%
Cc1c([N+](=O)[O-])cc([N+](=O)[O-])c(Br)c1[N+](=O)[O-] | inactive: 5.9%
COC(=O)c1cc2c(s1)N=C(c1ccccc1)N(C)P2(=O)N1CCOCC1 (stereo not drawn) | inactive: -0.481%
CC(=O)NC(SC(=S)N(CC(C)C)CC(C)C)C(Cl)(Cl)Cl (stereo not drawn) | inactive: 34.9%
Cc1ccc(OP(=O)(Nc2ccccn2)Oc2ccc(C)cc2)cc1 | inactive: -10.7%
O=C(OC1CN2CCC1CC2)c1ccccc1 (stereo not drawn) | inactive: 2.7%

Compound | growth inhibition
CCN(CC)CCCOC(=O)C(O)(c1ccccc1)C1CCCCC1 (stereo not drawn) | inactive: 0.893%
CC1OP(=O)(Oc2ccccc2)CC2OC12 (stereo not drawn) | inactive: -0.35%
CCC(=O)N1C2C3N(C(=O)CC)C1C1N(C(=O)CC)C(C(N1C(=O)CC)N3C(=O)CC)N2C(=O)CC | inactive: -4.44%
O=P1(N(CCCl)CCCl)OCCC2CCCCN21 (stereo not drawn) | inactive: -3.08%
CCOC(=O)c1ccc(NP(C)(=O)Oc2ccc(F)cc2)cc1 (stereo not drawn) | inactive: -0.262%
COc1ccc(OP(C)(=O)Nc2ccc(SC(F)(F)F)cc2)cc1 (stereo not drawn) | inactive: -4.11%
O=C(NC1CCS(=O)(=O)C1)NP(=S)(Oc1ccccc1)Oc1ccccc1 (stereo not drawn) | inactive: 4.9%
c1ccc(-c2nn[nH]n2)c(-c2nn[nH]n2)c1 | inactive: 6.94%
Cc1ccc(NP(=O)(Oc2cccc(C)c2)Oc2cccc(C)c2)nc1 | inactive: 3.28%
CN(C)C(=O)c1cc([N+](=O)[O-])cc2c1-c1c(cc([N+](=O)[O-])cc1[N+](=O)[O-])C2=O | inactive: 20.1%
O=[N+]([O-])c1ccc2c(c1)nnn2O | inactive: -0.455%
CC1=NCCc2c1[nH]c1ccccc21.O=[N+]([O-])c1cc([N+](=O)[O-])c(O)c([N+](=O)[O-])c1 | inactive: 6.29%
Cc1ccc(NC(=NP(=O)(N2CCOCC2)N2CCOCC2)N2CCOCC2)cc1 | inactive: -0.265%
N#CCCN(C(=O)COC(=O)C(O)(c1ccccc1)c1ccccc1)c1ccc(F)cc1 | inactive: 3.79%
CCOP1(=S)c2c(C)nn(CCC#N)c2N=C(c2ccc(F)cc2)N1C (stereo not drawn) | inactive: 4.34%
NC(=O)Nc1ccc([As](=O)(O)O)cc1 | inactive: -2.52%
Nc1ccccc1[As](=O)(O)c1ccccc1 | inactive: 5.62%
O=C(O)COc1ccc([As](=O)(O)O)cc1[N+](=O)[O-] | inactive: 14.4%
CCOP1(=S)c2c(C)nn(CCC#N)c2N=C(c2ccccc2F)N1C (stereo not drawn) | inactive: -7.82%
O=C(O)c1cccc(Nc2c([N+](=O)[O-])cc([N+](=O)[O-])cc2[N+](=O)[O-])c1 | inactive: 0.611%
O=P(Nc1nccs1)(c1ccccc1)c1nc2ccccc2s1 (stereo not drawn) | inactive: -0.658%
O=P(Nc1nccs1)(Oc1ccccc1)Oc1ccccc1 | inactive: 4.75%
CCOP(=O)(Nc1cccc2ccccc12)OCC | inactive: 4.48%
CCCOP(=S)(Nc1nc(N)cc(=O)[nH]1)OCCC | inactive: -2.62%
Cc1ccc(C)c(NP(C)(=O)Oc2ccccc2)c1 (stereo not drawn) | inactive: 7.95%

Compound | growth inhibition
CP(=O)(Nc1cccc(Br)c1)Oc1ccccc1 (stereo not drawn) | inactive: 4.94%
Cc1cc(C)cc(OP(C)(=O)Nc2ccccn2)c1 (stereo not drawn) | inactive: -2.82%
Cc1ccc(NCCc2c([N+](=O)[O-])cc([N+](=O)[O-])cc2[N+](=O)[O-])cc1 | inactive: 22.9%
CC1C=CCP(=O)(Oc2ccccc2)O1 (stereo not drawn) | inactive: 1.13%
CCOC(=O)c1ccc(NP(C)(=O)Oc2cc(C)cc(C)c2)cc1 (stereo not drawn) | inactive: -0.246%
O=[As](O)(c1cccc(O)c1)c1cccc(O)c1 | inactive: -3.2%
Cc1cccc(OCC(=O)OC2CN3CCC2CC3)c1 (stereo not drawn) | inactive: 1.45%
Cc1cc(C)cc(OP(C)(=O)Nc2ccc(C)cc2C)c1 (stereo not drawn) | inactive: -4.67%
COc1cc(C(=O)NCC2(N3CCOCC3)CCCCC2)cc(Cl)c1OC(C)C | inactive: -3.05%
O=[As](O)(O)c1cccnc1 | inactive: -1.63%
COc1ccccc1OP(C)(=O)Nc1cccc(Br)c1 (stereo not drawn) | inactive: 8.71%
CS(=O)(=O)c1ccc(Cl)c(NC(=O)COC(=O)C(O)(c2ccccc2)c2ccccc2)c1 | inactive: 0.766%
O=C(OC1CN2CCC1CC2)c1ccc(Cl)cc1 (stereo not drawn) | inactive: 3.8%
O=[As](O)(c1ccccc1Br)c1ccccc1Br | inactive: 2.22%
CC1(CBr)Cn2c(nc3ccccc3c2=O)S1 (stereo not drawn) | inactive: 6.38%
Cc1nc2ccc3ccccc3c2s1.O=[N+]([O-])c1cc([N+](=O)[O-])c(O)c([N+](=O)[O-])c1 | inactive: 5.11%
COc1ccccc1CNC(=O)COC(=O)C(O)(c1ccccc1)c1ccccc1 | inactive: 4.29%
O=[N+]([O-])c1cc([N+](=O)[O-])c(-c2cnn(-c3ccccc3)c2)c([N+](=O)[O-])c1 | inactive: 33.8%
Clc1n[nH]nc1-c1nn[nH][15n]1 | inactive: -2.52%
CC(C)(C)C(=O)NC(Sc1ncccn1)C(Cl)(Cl)Cl (stereo not drawn) | inactive: 1.22%
CCOP(=O)(Nc1ccc(C)cn1)OCC | inactive: 2.31%
O=P1(Nc2ccccn2)COc2ccccc2OC1 | inactive: 2.62%
O=[N+]([O-])c1cc([N+](=O)[O-])c(-n2nnc3ccccc32)c([N+](=O)[O-])c1 | inactive: -5.27%
